BindingDB's records for doi:10.1021/acsmedchemlett.8b00054 (Shandong University, 2018)

Assay: Inhibition of HIV1 reverse transcriptase K103N mutant infected in human MT4 cells assessed as protection against virus-induced cytotoxicity by MTT assay

Work on Cc1cc(C#N)cc(C)c1Oc1nc(Nc2ccc(C#N)cc2)nc(N)c1Br yielded an EC50 of 5.4 nM.
